Experimental data as given in patent US6037348A (priority 1997, dated 2000).

What was measured:
[1] = system: influenza virus strain A/Kawasaki/86; test: Resistance selection by passage in stepwise increases of compound, HA sequencing; conditions: virus JT.A (selected with COMPOUND C)
influenza A/Kawasaki/86 = test: Susceptibility of influenza A/Kawasaki/86

| Compound | resistance of virus JT.A [1] | susceptibility of A/Kawasaki/86 (influenza A/Kawasaki/86) |
| --- | --- | --- |
| O=C(O)CCC1(c2ccccc2)CCCCC1 [COMPOUND C] | resistant |  |
| COC(=O)[C@@]1(C)CCC[C@]2(C)c3cc(OC)ccc3C(=NO)C[C@@H]12 | crossresistant |  |
| COC(=O)[C@@]1(C)CCC[C@]2(C)c3cc(OC)ccc3C(=O)C[C@@H]12 [COMPOUND A] |  | sensitive |
